Tested on: DMO protein
Test: Western blot analysis of DMO targeted with pea RbcS CTP (related art)

B1: RbcS CTP: Pea Rubisco small subunit CTP including the 27 aa coding sequence, SEQ ID NO:1 (protein, listed as Pisum sativum)
chain: MASMISSSAVTTVSRASRGQSAAMAPFGGLKSMTGFPVRKVNTDITSITSNGGRVKCMQVWPPIGKKKFETLSYLPPLTRDSRA
In the case of B1, the “correctly processed DMO protein band” value is reported as ~38 kDa and the “larger band (DMO and the 27 aa of RbcS coding region)” value is reported as ~41 kDa.
